Assay results reported in PMC5501398 (PLoS ONE, 2017).

Target: T1, VcIIPK (Vibrio cholerae, UniProt Q9KQJ0)
T1 construct: gene VC_2008

Substance: ADP-Cr^2+
- Ki: 1.3 ± 0.1 mM
